Test results: patent US11091428B2 (HAPLOGEN GMBH, priority 2016, dated 2021)
pEC50: −log10 of the molar value.

Tested on: picornaviruses (CVB1, HRV-A2, HRV-A23, EV-68)
Assay: Anti-picornavirus cytopathic effect (CPE) reduction assay on HeLa H1 cells
Details: read-out: EC50 values of the compounds determined in the anti-picornavirus assay, 48 h, category from averaging the EC50 values from four picornaviruses (CVB1, HRV-A2, HRV-A23, EV68)
Method: The antiviral activity of selected compounds was tested using a cytopathic effect (CPE) reduction assay on HeLa H1 cells (ATCC CRL-1958). Briefly, cells were seeded in 96-well dishes (2×10^4 cells/well) in DMEM medium (Life technologies) supplemented with 10% FBS and PenStrep solution (100 U/mL Penicillin and 100 μg/mL streptomycin) and incubated at 37° C., 5% CO2 ovemight. The next day, cells were pre-treated with serial dilutions of the compound in DMEM medium supplemented with 2% FBS and PenStrep for 2 h at 37° C., 5% CO2. […] After that, plates were equilibrated to RT and subsequently, fluorescence was recorded (Excitation wavelength: 560 nm; emission wavelength: 590 nm) using a SpectraMax M5 multimode plate reader. Viability of cells was calculated according to the formula: V=(RFUCpd−RFUVeh/(RFUM−RFUVeh), where RFUCpd refers to infected and compound-treated cells, RFUVeh to infected and vehicle-treated cells and RFUM to uninfected and vehicle treated cells. Half-maximal effective concentrations (EC50) were calculated by non-linear regression analysis using the drc package in R (R Development. Core Team, 2005). EC50 categories as presented in Table 2 were calculated by averaging the EC50 values from four picornaviruses (CVB1, HRV-A2, HRV-A23, EV68).

`CC(C)C(=O)NCCCNC(=O)C(=O)[C@H]1CCC(=O)N1Cc1ccccc1` showed a pEC50 of 5.00 to 6.00.
